Pooled drug test results. Numbers come from NIAID ChemDB, via PubChem.

Shared fields: whole-cell or culture tests; agent: HIV-1

Blank or dashed fields: not listed here.

| compound | read-out | strain or isolate | read by | cell line | mutations | result |
|---|---|---|---|---|---|---|
| CC(C)c1nc(CN(C)C(=O)N[C@H](C(=O)N[C@@H](Cc2ccccc2)C[C@H](O)[C@H](Cc2ccccc2)NC(=O)OCc2cncs2)C(C)C)cs1 | EC90 | IIIB | cytopathic effect / MTT | MT-4 |  | 0.056 µg/mL |
| Cc1cn([C@@H]2O[C@H](CO[Si](C)(C)C(C)(C)C)C3(OS(=O)(=O)C=C3N)[C@H]2O[Si](C)(C)C(C)(C)C)c(=O)n(CCOC(=O)[C@@H](N)C(C)C)c1=O | EC50 | IIIB | syncytia | CEM |  | 0.05 µM |
| CC(C)CN(C[C@@H](O)[C@H](Cc1ccccc1)NC(=O)[C@H](CC(N)=O)NC(=O)c1ccc2ccccc2n1)C(=O)NC(C)(C)C | EC95 | NL4-3 | p24 | MT-4 | PR-M46I V82T I84V | 0.8 µM |
| CC(C)Nc1cccnc1N1CCN(C(=O)c2cc3cc(NS(C)(=O)=O)ccc3[nH]2)CC1 | EC50 | NL4-3 | cytopathic effect / MTT | MT-4 |  | 0.0136 µM |
| COc1ccc2nc3cc(Cl)ccc3c(Nc3cccnc3)c2c1 | EC50 |  | MTT | MT-4 |  | >9 µM |
| Cc1cn([C@H]2C[C@H](N=[N+]=[N-])[C@@H](CO)O2)c(=O)[nH]c1=O | EC50 | NL4-3 | cytopathic effect / MTT | MT-4 |  | 0.011 µM |
| Nc1ccn([C@H]2CC[C@@H](CO)O2)c(=O)n1 | EC50 | IIIB | cytopathic effect / MTT | MT-4 |  | 0.018 µg/mL |
| COC(C)(C)CCc1cc(=O)n(-c2ccc(Cl)c3c(NS(C)(=O)=O)nn(C)c23)c([C@H](Cc2cc(F)cc(F)c2)NC(=O)Cn2nc(C(F)F)c3c2C(F)(F)[C@@H]2C[C@H]32)n1 | EC50 | NL4-3 | luciferase | MT-2 |  | 0.00007 µM |
| CCN[C@H]1CO[C@@H]2OC[C@H](OC(=O)N[C@@H](Cc3cc(F)cc(F)c3)[C@H](O)CN(CC(C)C)S(=O)(=O)c3ccc4nc(NC5CC5)sc4c3)[C@@H]21 | EC50 | NL4-3 | p24 / luminescence | MT-4 |  | 0.0092 µM |
| C=C(COCP(=O)(O)O)Cn1cnc2c(=O)[nH]c(N)nc21 | EC50 | HE |  | MT-4 |  | 17.7 µM |
| O=C1c2ccccc2C2(c3ccccc3)SCCN12 | EC50 | IIIB | p24 / ELISA | PBMC |  | 0.536 µM |
| Cc1cn([C@@H]2O[C@H](CO[Si](C)(C)C(C)(C)C)C3(OS(=O)(=O)C=C3N)[C@H]2O[Si](C)(C)C(C)(C)C)c(=O)n(CC(=O)N[C@@H](C)C(=O)OCc2ccccc2)c1=O | EC50 | IIIB | cytopathic effect / trypan blue | MT-4 |  | 0.18 µM |
| Cc1ccnc2c1NC(=O)c1cccnc1N2C1CC1 | EC50 | IIIB | syncytia | CEM | RT-K103N | 1.8 µg/mL |
| Nc1ccn([C@H]2CC[C@@H](CO)O2)c(=O)n1 | EC50 | NL4-3 | cytopathic effect / MTT | MT-4 |  | 0.95 µM |
| Nc1nc(NC2CC2)c2ncn([C@H]3C=C[C@@H](CO)O3)c2n1 | EC50 | BRU PITT.(RT-K65R) | cytopathic effect / MTT | PBMC | RT-K65R | 19 µM |
| Cc1cn([C@H]2C[C@H](N=[N+]=[N-])[C@@H](CO)O2)c(=O)[nH]c1=O | EC50 | IIIB | syncytia | CEM | RT-E103K | 0.003 µg/mL |
| CC(C)Nc1cccnc1N1CCN(C(=O)c2cc3cc(NS(C)(=O)=O)ccc3[nH]2)CC1 | EC50 | BaL | p24 | Macrophage + Monocytes/macrophages | RT-V106A | 3.2 µM |
| CC(C)(C)NC(=O)[C@@H]1C[C@@H]2CCCC[C@@H]2CN1CC(O)[C@H](Cc1ccccc1)NC(=O)[C@H](CC(N)=O)NC(=O)c1ccc2ccccc2n1.CS(=O)(=O)O | EC50 | NL4-3 | p24 / luminescence | MT-4 |  | 0.0025 µM |
| O=C(c1ccccc1)c1cnc(Cc2ccc(Nc3c(Cl)cccc3Cl)cc2)[nH]1 | EC50 | NL4-3 | p24 / ELISA | MT-4 |  | 0.13 µg/mL |
| Cc1cccc(C)c1OCC(=O)N[C@@H](Cc1ccccc1)[C@@H](O)C[C@H](Cc1ccccc1)NC(=O)[C@H](C(C)C)N1CCCNC1=O | EC50 | NL4-3 | cytopathic effect / MTT | MT-4 |  | 0.0093 µM |
| Cc1ccc(-c2ccc3c(c2)C=C(C(=O)Nc2ccc(C[N+](C)(C)C4CCOCC4)cc2)CCC3)cc1 | EC50 | BaL | β-galactosidase | MAGI + MAGI-CCR5 |  | 0.0012 µM |
| CCC[C@]1(CCc2ccccc2)CC(O)=C([C@@H](CC)c2cccc(NS(=O)(=O)c3ccc(C(F)(F)F)cn3)c2)C(=O)O1 | EC50 | NL4-3 | MTT / p24 | MT-4 |  | 0.0254 µM |
| Cc1cn([C@@H]2O[C@H](CO[Si](C)(C)C(C)(C)C)C3(OS(=O)(=O)C=C3N)[C@H]2O[Si](C)(C)C(C)(C)C)c(=O)n(CC(=O)N[C@H](C(=O)OCc2ccccc2)C(C)C)c1=O | EC50 | IIIB | cytopathic effect / trypan blue | MT-4 |  | 4.1 µM |
| COc1ccc2nc3cc(Cl)ccc3c(NCCC[C@@H]3CCCN4CCCC[C@H]34)c2c1 | EC50 |  | MTT | MT-4 |  | >1.3 µM |
| CC(C)(C)NC(=O)[C@@H]1C[C@@H]2CCCC[C@@H]2CN1C[C@@H](O)[C@H](Cc1ccccc1)NC(=O)[C@H](CC(N)=O)NC(=O)c1ccc2ccccc2n1 | EC50 | NL4-3 | p24 | MT-4 | PR-L10R L63P V82T | <0.025 µM |
| CC(C)(C)NC(=O)[C@@H]1CN(Cc2cccnc2)CCN1C[C@@H](O)C[C@@H](Cc1ccccc1)C(=O)N[C@H]1c2ccccc2C[C@H]1O | EC50 | NL4-3 | cytopathic effect / MTT | MT-4 |  | 0.0243 µM |
| COc1ccc2nc3cc(Cl)ccc3c(NC(CO)C(C)C)c2c1 | EC50 |  | MTT | MT-4 |  | >0.7 µM |
| C[C@H](Cn1cnc2c(N)ncnc21)OCP(=O)(O)O | EC50 | IIIB | syncytia | CEM | RT-K103N | 1.7 µg/mL |
| CCN(CC)CCCC(C)Nc1c2ccc(Cl)cc2nc2ccc(OC)cc12 | EC50 |  | MTT | MT-4 |  | >1.8 µM |
| Nc1ncnc2c1ncn2CCOCP(=O)(O)O | EC50 | HE |  | MT-4 |  | 16 µM |
| Cc1cc(C)cc([C@]23SCCN2C(=O)c2ccccc23)c1 | EC50 | D79 | p24 / ELISA | PBMC |  | 0.009 µM |
| Nc1nc(=O)n([C@@H]2CS[C@H](CO)O2)cc1F | EC50 | LAI (K65R) Recombinant | cytopathic effect / XTT | MT-2 |  | 10 µM |
| CCNc1cccnc1N1CCN(C(=O)c2cc3cc(OC)ccc3[nH]2)CC1 | EC50 | BaL | p24 | PBMC | RT-P236L | 32 µM |
| O=c1[nH]cnc2c1ncn2[C@H]1CC[C@@H](CO)O1 | EC50 | IIIB | cytopathic effect / MTT | MT-4 |  | 0.55 µg/mL |
| Cc1cn([C@H]2C[C@H](N=[N+]=[N-])[C@@H](CO)O2)c(=O)[nH]c1=O | EC50 | LAI | RT activity | CEM + CEM-SS |  | 0.006 µM |
| Cc1cn([C@H]2C[C@H](N=[N+]=[N-])[C@@H](CO)O2)c(=O)[nH]c1=O | EC50 | NL4-3 | p24 / luminescence | MT-4 |  | 0.0325 µM |
| Cc1ccnc2c1NC(=O)c1cccnc1N2C1CC1 | EC50 | IIIB | cytopathic effect / MTT | MT-4 |  | 0.018 µg/mL |

ECn is the concentration giving n% inhibition of infection, replication or growth. Rows are shuffled and stem from different studies.